From patent publication US6664231B1, “Anti-fungal peptides” (priority 1993, dated 2003)

How the values were obtained:
[1] = test system: C. albicans (SLU-1 strain); experiment: Survival of mice systemically infected with Candida albicans; format: in vivo, mouse
Procedure: Groups of 15 male DBA/2J mice at age 6-8 weeks (Jackson Laboratory, Bar Harbor, Me.) were inoculated with 1.24×10^5 C. albicans (SLU-1 strain as described in Example 2) by intravenous injection into the tail vein. Cells were prepared for animal injection as follows. A single colony was selected and used to inoculate a 5 mL tube of Sabouraud dextrose broth. Incubation was at 30° C. with shaking to allow aeration for a period of 15-18 hours. Four mL of the overnight culture were added to 100 mL of fresh Sabouraud dextrose broth (1:25 dilution) and incubated for 4 hours. The 100 mL culture was pelleted at 1,500×g for 5 minutes. Cells were washed twice by adding 20 mL D-PBS, vortexing and re-centrifuging. Cells were collected in one tube and a sample is diluted 1:10 to be measured by OD570 (1 OD unit=3×10^7 CFU/mL). […] Colonies were counted the following day after overnight incubation at 37° C. […]
Immediately after fungal challenge, the mice were intravenously injected via the tail vein with a 0.1 mL volume of 10 mg/kg XMP.36, 5 mg/kg XMP.97, 10 mg/kg XMP.102, 1 mg/kg amphotericin B (Sigma, St. Louis, Mo.), or phosphate buffered saline (PBS) as a control. […] Mice were monitored twice daily for mortality until termination of the study at Day 28. […] Statistical significance was evaluated using the Lifetest Survival Curve analysis. […]

[2] = test system: Candida albicans SLU-1; experiment: Broth dilution assay, combinations of peptide and amphotericin B; format: cell-based; conditions: amphotericin B 0.047-0.750 μg/ml; FIG. 3

Compound	mice survived until Day 28 ([1]; 1.24×10^5 C. albicans i.v., 3 doses i.v. (Day 0, 2, 4), 10 mg/kg XMP.36, 5 mg/kg XMP.97, 10 mg/kg XMP.102, 1 mg/kg amphotericin B, FIG. 4) [%]	effect of combination of peptide and amphotericin B [2]	mice survived until Day 28 ([1]; 0.5×10^5 Candida cells, doses Day 0, 2, 5, 10 mg/kg XMP.127, 5 mg/kg XMP.13, 5 mg/kg XMP.37, 1 mg/kg amphotericin B, FIG. 5) [%]
CC[C@H](C)[C@H](NC(=O)[C@H](CC(C)C)NC(=O)[C@H](Cc1c[nH]c2ccccc12)NC(=O)[C@H](CCCCN)NC(=O)[C@@H](NC(=O)[C@H](CCCCN)NC(=O)[C@H](CO)NC(=O)[C@@H](N)CCCCN)C(C)C)C(=O)N[C@@H](CCC(N)=O)C(=O)N[C@@H](CC(C)C)C(=O)N[C@@H](Cc1ccccc1)C(=O)N[C@@H](Cc1c[nH]cn1)C(=O)N[C@@H](CCCCN)C(=O)N[C@@H](CCCCN)C(N)=O [XMP.97]	53	decreasing the amount of both anti-fungal agents required for maximum killing	–
CC[C@H](C)[C@H](NC(=O)[C@H](CC(C)C)NC(=O)[C@H](Cc1ccccc1)NC(=O)CNC(=O)[C@@H](NC(=O)[C@H](CCCCN)NC(=O)[C@H](CO)NC(=O)[C@@H](N)CCCCN)C(C)C)C(=O)N[C@@H](CCC(N)=O)C(=O)N[C@@H](CC(C)C)C(=O)N[C@@H](Cc1ccccc1)C(=O)N[C@@H](Cc1c[nH]cn1)C(=O)N[C@@H](CCCCN)C(=O)N[C@@H](CCCCN)C(N)=O [XMP.127]	–	–	67
